Measured values taken from PMC11350758, “Development of Xanthoangelol-Derived Compounds with Membrane-Disrupting Effects against Gram-Positive Bacteria” (Antibiotics, 2024).

Test system: red blood cells
Experiment: Hemolysis assay
Format: cell-based, Sheep
Conditions: HC50/MICs of S. aureus ATCC43300
Method: All target derivatives were assessed for their in vitro antibacterial activities using a broth microdilution assay to test their minimum inhibitory concentrations (MICs) against six Gram-positive strains (S. aureus ATCC31007, S. aureus ATCC25923, S. aureus ATCC43300, E. faecalis ATCC29212, B. subtilis ATCC9372, and S. epidermidis ATCC12228) and four Gram-negative strains (A. baumannii ATCC19606, K. pneumonia ATCC10031, E. coli ATCC25922, and P. aeruginosa ATCC27853). These compounds were also evaluated for their hemolytic activities and membrane selectivity by determining their HC50 (the concentration required to lyse 50% of red blood cells) and SI (HC50/MICs) values, respectively, and vancomycin was used as the positive drug.
To further detect the hemolytic toxicity and therapeutic potential of these derivatives, we proceeded to examine the hemolytic activities and membrane selectivity of these derivatives. The HC50 value was defined as the concentration needed for a compound to lyse 50% of red blood cells, and it is often used to evaluate the hemolytic toxicity to eukaryotic cells. […] The selectivity index (SI) was calculated by HC50/MICs of S. aureus ATCC43300 and was used to assess the potency and safety of the compounds. […] Thus, compound 9h was selected as a representative molecule for the in-depth in vitro and in vivo studies.
Sheep blood was used to isolate red blood cells (RBCs), which were then resuspended in 1× PBS (5%). The compounds were dissolved in PBS to give an initial concentration of 5.12 mg/mL, compound solution (100 μL) was added to the first well of a 96-well plate, two-fold serial dilutions of compounds were prepared in 96-well plates, and then 150 μL of 5% RBC suspension was added to each well. This was followed by incubation at 37 °C for 1 h. After incubation, the plate was centrifuged (3500 rpm, 5 min), and 100 μL of supernatant solution from each well was carefully pipetted into a new plate. The absorbance values were measured at 540 nm. Erythrocyte hemolysis rate = (Absorbancecompound – Absorbance negative control)/(Absorbance1% Triton X-100 − Absorbance negative control) × 100%. All biological experiments were repeated three times.

## CCN(CC)CCCOc1c2c(c3c(c1C(C)=O)OC(C)(CCC=C(C)C)C=C3)OC(C)(CCC=C(C)C)C=C2 (stereo not drawn) [Compound 9c, 1-(5-(3-(Diethylamino)propoxy)-2,8-dimethyl-2,8-bis(4-methylpent-3-en-1-yl)-2H,8H-pyrano[2,3-f]chromen-6-yl)ethan-1-one]
  SI: 46.9

## CC(=O)c1ccc2c(c1OCCCN1CC(C)OC(C)C1)C=CC(C)(CCC=C(C)C)O2 (stereo not drawn) [Compound 5d, 1-(5-(3-(2,6-Dimethylmorpholino)propoxy)-2-methyl-2-(4-methylpent-3-en-1-yl)-2H-chromen-6-yl)ethan-1-one]
  SI: <5.8

## CC(=O)c1c(OCCCNCCCN2CCN(C)CC2)c2c(c3c1OC(C)(CCC=C(C)C)C=C3)OC(C)(CCC=C(C)C)C=C2 (stereo not drawn) [Compound 9h, 1-(2,8-Dimethyl-2,8-bis(4-methylpent-3-en-1-yl)-5-(3-((3-(4-methylpiperazin-1-yl)propyl)amino)propoxy)-2H,8H-pyrano [2,3-f]chromen-6-yl)ethan-1-one]
  SI: 49.0

## CNCCN(C)CCCOc1c2c(c3c(c1C(C)=O)OC(C)(CCC=C(C)C)C=C3)OC(C)(CCC=C(C)C)C=C2 (stereo not drawn) [Compound 9f, 1-(2,8-Dimethyl-5-(3-(methyl(2-(methylamino)ethyl)amino)propoxy)-2,8-bis(4-methylpent-3-en-1-yl)-2H,8H-pyrano[2,3-f]chromen-6-yl)ethan-1-one]
  SI: 10.1

## CC(=O)c1ccc2c(c1OCCCN(C)CC(C)(C)CN(C)C)C=CC(C)(CCC=C(C)C)O2 (stereo not drawn) [Compound 5g, 1-(5-(3-((3-(Dimethylamino)-2,2-dimethylpropyl)(methyl)amino)propoxy)-2-methyl-2-(4-methylpent-3-en-1-yl)-2H-chromen-6-yl)ethan-1-one]
  SI: 22.9

## CCN(CC)CCCNCCCOc1c2c(c3c(c1C(C)=O)OC(C)(CCC=C(C)C)C=C3)OC(C)(CCC=C(C)C)C=C2 (stereo not drawn) [Compound 9g, 1-(5-(3-((3-(Diethylamino)propyl)amino)propoxy)-2,8-dimethyl-2,8-bis(4-methylpent-3-en-1-yl)-2H,8H-pyrano[2,3-f]chromen-6-yl)ethan-1-one]
  SI: 8.7

## CCN(CC)CCCOc1c(C(C)=O)ccc2c1C=CC(C)(CCC=C(C)C)O2 (stereo not drawn) [Compound 5c, 1-(5-(3-(Diethylamino)propoxy)-2-methyl-2-(4-methylpent-3-en-1-yl)-2H-chromen-6-yl)ethan-1-one]
  SI: 10.1

## CC(=O)c1ccc2c(c1OCCCN1CCN(C(C)=O)CC1)C=CC(C)(CCC=C(C)C)O2 (stereo not drawn) [Compound 5e, 1-(4-(3-((6-Acetyl-2-methyl-2-(4-methylpent-3-en-1-yl)-2H-chromen-5-yl)oxy)propyl)piperazin-1-yl)ethan-1-one]
  SI: 0.49

## CC(=O)c1c(OCCC[n+]2ccccc2)c2c(c3c1OC(C)(CCC=C(C)C)C=C3)OC(C)(CCC=C(C)C)C=C2 (stereo not drawn) [Compound 9b, 1-(3-((6-Acetyl-2,8-dimethyl-2,8-bis(4-methylpent-3-en-1-yl)-2H,8H-pyrano[2,3-f]chromen-5-yl)oxy)propyl)pyridin-1-ium]
  SI: 26.6

## CC(=O)c1ccc2c(c1OCCCNCCN(C)C)C=CC(C)(CCC=C(C)C)O2 (stereo not drawn) [Compound 5f, 1-(5-(3-((2-(Dimethylamino)ethyl)amino)propoxy)-2-methyl-2-(4-methylpent-3-en-1-yl)-2H-chromen-6-yl)ethan-1-one]
  SI: 16.0

## CCNCCCOc1c(C(C)=O)ccc2c1C=CC(C)(CCC=C(C)C)O2 (stereo not drawn) [Compound 5b, 1-(5-(3-(Ethylamino)propoxy)-2-methyl-2-(4-methylpent-3-en-1-yl)-2H-chromen-6-yl)ethan-1-one]
  SI: 7.4

## CC[N+](CC)(CC)CCCOc1c2c(c3c(c1C(C)=O)OC(C)(CCC=C(C)C)C=C3)OC(C)(CCC=C(C)C)C=C2 (stereo not drawn) [Compound 9a, 3-((6-Acetyl-2,8-dimethyl-2,8-bis(4-methylpent-3-en-1-yl)-2H,8H-pyrano[2,3-f]chromen-5-yl)oxy)-N,N,N-triethylpropan-1-aminium]
  SI: 10.1

## CC[N+](CC)(CC)CCCOc1c(C(C)=O)ccc2c1C=CC(C)(CCC=C(C)C)O2 (stereo not drawn) [Compound 5a, 3-((6-Acetyl-2-methyl-2-(4-methylpent-3-en-1-yl)-2H-chromen-5-yl)oxy)-N,N,N-triethylpropan-1-aminium]
  SI: 8.9

## CC(=O)c1c(OCCCN2CC(C)OC(C)C2)c2c(c3c1OC(C)(CCC=C(C)C)C=C3)OC(C)(CCC=C(C)C)C=C2 (stereo not drawn) [Compound 9d, 1-(5-(3-(2,6-Dimethylmorpholino)propoxy)-2,8-dimethyl-2,8-bis(4-methylpent-3-en-1-yl)-2H,8H-pyrano[2,3-f]chromen-6-yl)ethan-1-one]
  SI: >10

## CC(=O)c1c(OCCCSC(=N)N)c2c(c3c1OC(C)(CCC=C(C)C)C=C3)OC(C)(CCC=C(C)C)C=C2 (stereo not drawn) [Compound 9e, 2-(3-((6-Acetyl-2,8-dimethyl-2,8-bis(4-methylpent-3-en-1-yl)-2H,8H-pyrano[2,3-f]chromen-5-yl)oxy)propyl)isothiouronium]
  SI: >20
